# Test results: PubChem BioAssay AID1949 (Southern Research Institute, 2009)
# The list shows a part of the results, in another mix than the full data. Results filed as inconclusive are left out. Activity calls are given as the source filed them. The rule behind the calls is not given here.
# Assay: Mycobacterium tuberculosis H37Rv growth inhibition, cell based, confirmatory dose response (AID 1949);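 note: bacteria grown 7 days with compound before Alamar blue readout; 0% = untreated bacteria wells and 100% = bacteria with saturating antibiotic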
# Details: M. tuberculosis H37Rv growth inhibition; hits give high values
row,Structure (SMILES),inhibition
1,Cc1ccccc1OCC(=O)OC1CN2CCC1CC2 (stereo unspecified),inactive: 0%
2,O=C(CCc1ccccc1)OC1CN2CCC1CC2 (stereo unspecified),inactive: 5.28%
3,Cc1cccc(C(=O)OC2CN3CCC2CC3)c1 (stereo unspecified),inactive: 0%
4,CN1CCCC(OC(=O)C(c2ccccc2)c2ccccc2)C1 (stereo unspecified),inactive: 1.88%
5,O=C(OC1CN2CCC1CC2)c1cccc(Cl)c1 (stereo unspecified),inactive: 0%
6,COc1ccc(OCC(=O)OC2CN3CCC2CC3)cc1 (stereo unspecified),inactive: 0%
